Pooled drug test results. Numbers come from NIAID ChemDB, via PubChem.

Common to all: whole-cell or culture tests; organism: Influenza B virus

ECn: concentration that inhibits the pathogen or its effect by n%. An empty or dashed field is not shown. Two numbers with a dash give a range or band. Percent inhibition refers to the dose given; in toxicity tests it is the harm to the cells. Neighbouring rows are from separate reports.

smiles,cells,strain or isolate,read-out,tested at,method,value
C/C=C\[C@@H]1C[C@H](C(=O)O)N[C@H]1[C@@H](NC(C)=O)[C@](C)(CCC)OC,MDCK,Isolate G62,EC50,,plaque count,<0.01 µg/mL
CC1=C(C)C2C(N)C1CC[C@H]2C(C)C,MDCK,,EC50,,plaque count,~15 µM
Nc1nc(Cl)cc(NCC2(CO)CCC(OCc3ccccc3)C2)n1,MDCK,B/GIFU/2/73,EC50,,plaque count,1.1–1.5 µM
CC(=O)N[C@H]1[C@H]([C@H](O)[C@H](O)CO)OC(C(=O)O)=C[C@@H]1N=C(N)N,MDCK,Harbin/07/94,EC50,,,0.2 µM
Nc1nc(Cl)cc(NCC2(CO)CC(CCc3ccccc3)C2)n1,MDCK,B/GIFU/2/73,EC50,,plaque count,0.35–0.63 µM
CC1=C(C)C2C(N)C1CC[C@@H]2C,MDCK,,EC50,,plaque count,~20 µM
CN(CC1(CO)CCC1)c1cc(Cl)nc(N)n1,MDCK,B/GIFU/2/73,EC50,,plaque count,>120 µM
CC1=C(C)C2CCCC1C2N,MDCK,,EC50,,plaque count,>100 µM
[N-]=C=Nc1nncs1,MDCK,B/Virginia/88,inhibition,1 µg/mL,virus yield,90%
CC1=C(C)C2C(N)C1[C@H](C(C)C)C[C@H]2C,MDCK,,EC50,,plaque count,34 µM
CCC(CC)O[C@@H]1C=C(C(=O)O)C[C@H](N)[C@H]1NC(C)=O,MDCK,B/Harbin/07.94,EC50,,,0.26 µM
Nc1nc(Cl)c(/C=N/O)c(NCC2(CO)CC(CCc3ccccc3)C2)n1,MDCK,B/GIFU/2/73,EC50,,plaque count,0.13–0.26 µM
CC1=C(c2ccccc2)C2CCCC1C2N,MDCK,,EC50,,plaque count,>100 µM
CC(NCNc1ccc2ccccc2c1)C(=O)O,CEF,B/LEE,inhibition,244 µg/mL,plaque count,46.7%
Nc1nc(Cl)cc(NCC2(CO)CC(Cc3ccccc3)C2)n1,MDCK,B/GIFU/2/73,EC50,,plaque count,0.27–0.66 µM

Repeating the final 2 entries:

smiles	cells	strain or isolate	read-out	tested at	method	value
CC(NCNc1ccc2ccccc2c1)C(=O)O	CEF	B/LEE	inhibition	244 µg/mL	plaque count	46.7%
Nc1nc(Cl)cc(NCC2(CO)CC(Cc3ccccc3)C2)n1	MDCK	B/GIFU/2/73	EC50		plaque count	0.27–0.66 µM